Measurements from “University of Dundee, Small-Polar-MMV Screening Library” (2021), ChEMBL document CHEMBL3988442.

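Whole-cell growth test on Mycobacterium tuberculosis, read after 3 days in glucose-containing 7H9 medium; the read-out is not stated. Tested at 500 µM. Higher reads as more growth inhibition (inferred: compounds with an IC50 in retests scored well above the rest). Of about 18,000 compounds tested this way, about 1,400 (7.9%) reached 50% or more in at least one test.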

Each number is a percent effect as filed. The controls that fix the scale are not given in the record; negative values are as filed. This is part of a subset picked to be rich in strong results.

compound | Percent Effect
COc1ccc(CC(=O)NCC2CCCNC2)cc1F (centres unmarked) | -1.871
Cn1ccc(C(=O)N2CCc3ccccc32)cc1=O | 22.66
O=C(NCc1ccco1)Nc1nc2c(s1)COCC2 | 52.12
COC(CN)CC(C)C (centres unmarked) | 8.302
CCn1ccnc1CN1CCC(=O)NCC1C (centres unmarked) | -0.9947
CC(=O)c1cc(C(=O)NCc2cnc(C)cn2)cs1 | 6.453
CC(NC(=O)c1ccc(C(C)(C)C)cc1)C(N)=O (centres unmarked) | 4.764
CCCNc1nnc(SCC(C)(C)O)s1 | 69.66
O=C(CC1COc2ccccc2O1)N1CCOCC1 (centres unmarked) | 55.46
CCOCCC(=O)N1c2ccccc2OCC1C (centres unmarked) | 52.35
O=C(Cc1ccc(F)c(F)c1)N1CCCO1 | 20.84
COCCN(C)CCNC(=O)c1ccc(C)c(OC)c1 | 37.63
CC(C)C(C(=O)NCCc1nnc[nH]1)c1ccccc1 (centres unmarked) | 15.36
Cc1cc(C)cc(OCCNC(=O)CSCC(N)=O)c1 | 55.72
CCCc1nc(C(=O)NCCS(=O)(=O)N(C)C)cs1 | 28.17
CCN1C(=O)Cc2cc(C(=O)NC(C)(C)C)ccc21 | -0.8082
CN(C)c1cc(Cn2cnc3sccc3c2=O)ccn1 | 52.7
COCCN(C)C(=O)Nc1cccc(Cl)c1 | 53.69
N#Cc1cccc(NCC(=O)NCc2ccco2)c1 | 70.34
CCCn1nnc(NC(=O)c2cccnc2)n1 | 18.78
O=C(CNC(=O)c1cccs1)c1ccccc1 | 53.73
NC(=O)c1cnn(Cc2ccc3c(c2)CCC3)c1 | 21.06
O=C(NCc1nnc2n1CCCCC2)c1ccoc1 | 1.34
Cc1cc(C(=O)NCCCNCc2cccnc2)no1 | -4.333
CS(=O)(=O)N1CCN(c2cccc(O)c2)CC1 | 12.12
CC(C)(C)NS(=O)(=O)c1ccccc1CN | 20.3
CCC1c2ccsc2CCN1CC(=O)NC (centres unmarked) | 53.51
O=S1(=O)CCC(CNc2ccnc3ccc(Cl)cc23)C1 (centres unmarked) | -37.55
CC(C)Cc1cc(CNC(=O)CSc2cnn[nH]2)no1 | 49.42
NS(=O)(=O)c1ccc(F)c(C(=O)NCc2ccon2)c1 | -13.2
CCOC(=O)c1cnc(N2CCNCC2)s1 | 61.28
O=C(Nc1ccnc(CO)c1)c1ccc(F)cc1I | 87.35
Cc1ccccc1N1C(=O)C=CC1=O | 105
CCN1CCC(NC(=O)c2c(F)cccc2F)CC1 | 13.7
COc1ccc(-n2c(C)n[nH]c2=O)cc1Cl | 7.863
CCN1CC(c2nc3ccccc3[nH]2)CC1=O (centres unmarked) | 56.88
CCOCC(=O)NCC(O)c1cccc(C(F)(F)F)c1 (centres unmarked) | 60.06
O=C(c1cccc2cn[nH]c12)N1CCCC1CO (centres unmarked) | 69.74
NCCN1C(=O)c2ccccc2S1(=O)=O | -3.057
CCOCCNC(=O)N1CCN(S(C)(=O)=O)CC1 | 2.966
CC(N)CC(=O)Nc1cccc(N2CCCC2)c1 (centres unmarked) | 44.86
CC(NC(=O)CNc1cc(F)cc(Br)c1)C(=O)N(C)C (centres unmarked) | 61.59
CS(=O)(=O)N1CCC(=Cc2ccccc2)CC1 | -12.11
CNCc1occc1C | -9.286
CNC(C)c1ccncc1 (centres unmarked) | 21.92
Cc1nnc(SCCN)s1 | 50.79
O=C(c1cc(C2CC2)on1)N1CCCN(C2CC2)CC1 | 55.5
CCOC(=O)C(C)(C)n1cc(N)cn1 | 32.95
CN1CCN(c2ccncc2N)CC1 | -7.556

Repeated from the top, 3 entries:

{"compound": "COc1ccc(CC(=O)NCC2CCCNC2)cc1F", "stereo": "centres unmarked", "Percent Effect": -1.871}
{"compound": "Cn1ccc(C(=O)N2CCc3ccccc32)cc1=O", "Percent Effect": 22.66}
{"compound": "O=C(NCc1ccco1)Nc1nc2c(s1)COCC2", "Percent Effect": 52.12}